Test results reported in patent US12630523B2, “Isoquinoline derivatives for use as antiviral and antitumour agents” (priority 2021, dated 2026).

Tested on: cell signaling molecules (4E-BP1, p70 S6 kinase, Akt, PTPN14, p53, PD-L1)
Test: Western blot of cell signaling molecules in CaSki cells
Conditions: 10 μM, 4 hours

Compound: Cc1ccc(CN2C(=O)c3ccccc3[C@H](C(=O)Nc3cccc(N4CCN(C)CC4)c3)[C@@H]2c2ccc(C(F)(F)F)cc2)cc1 [OC246, N-[3-(4-methylpiperazin-1-yl)phenyl]-2-[(4-methylphenyl)methyl]-1-oxo-3-[4-(trifluoromethyl)phenyl]-1,2,3,4-tetrahydroisoquinoline-4-carboxamide]
- phosphor-p70-S6K T389: de-phosphorylated
